PubChem BioAssay AID1224833 | University of Georgia | 2016
This is one part, drawn at random, of about 12,000 deposited reagents. Of all reagents, about 5,600 (46%) got an active call. 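Active calls cover z-scores past 1 in both directions, so they include lowered as well as raised rotavirus replication.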

- Aim: 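Host factors restraining rotavirus as candidate antiviral genes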 (primary screen)
- Cell system: monkey MA104 kidney cells
- Reagent: siRNA pool against human genes, 50 nM
- Duration: 48 h knock-down before infection; read 24 h after infection
- Conditions: infection with rotavirus strain RV3 two days after transfection; infectious dose for this stage not given
- Read-out: 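z-score of rotavirus antigen signal per well, from a fluorescent immunoassay, relative to non-targeting control wells on the same plate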
- Reading the numbers: z-score vs non-targeting control: higher = more rotavirus replication than with non-targeting control
- Hit rule: In these data the active calls have z-score vs non-targeting control at about -1 or lower, or at about 1 or higher
- Calls: active = z-score beyond 1 either way; inactive = z-score within 1 of zero

The first 2 records, ahead of the listing:
target	z-score vs non-targeting control	outcome
ZNF319 (zinc finger protein 319)	-1.98	active
PMF1 (polyamine modulated factor 1)	0.616	inactive

The listing, from the start:
target	z-score vs non-targeting control	outcome
ZNF319 (zinc finger protein 319)	-1.98	active
PMF1 (polyamine modulated factor 1)	0.616	inactive
SH3BGRL (SH3 domain binding glutamate rich protein like)	0.514	inactive
TMEM74B (transmembrane protein 74B)	1.64	active
CMTM2 (CKLF like MARVEL transmembrane domain containing 2)	1.8	active
CD164L2 (CD164 molecule like 2)	0.342	inactive
LRRC2 (leucine rich repeat containing 2)	-1.27	active
METTL1 (methyltransferase 1, tRNA methylguanosine)	0.506	inactive
SERPINA3 (serpin family A member 3)	1.17	active
SPIN2B (spindlin family member 2B)	-0.621	inactive
DPYSL4 (dihydropyrimidinase like 4)	0.526	inactive
SEZ6L (seizure related 6 homolog like)	0.639	inactive
B4GALT3 (beta-1,4-galactosyltransferase 3)	0.759	inactive
RTN4IP1 (reticulon 4 interacting protein 1)	-2.14	active
LSM2	-1.03	active
ISOC1 (isochorismatase domain containing 1)	-0.891	inactive
FATE1 (fetal and adult testis expressed 1)	0.333	inactive
IFT172 (intraflagellar transport 172)	1.2	active
MOB1A (MOB kinase activator 1A)	-1.13	active
ZNF595 (zinc finger protein 595)	-0.981	inactive
RGS12 (regulator of G protein signaling 12)	1.75	active
C1orf56 (chromosome 1 open reading frame 56)	2.17	active
SP140 (SP140 nuclear body protein)	-1.18	active
OR51T1 (olfactory receptor family 51 subfamily T member 1)	-4.01	active
CCL19 (C-C motif chemokine ligand 19)	1.11	active
CPEB1 (cytoplasmic polyadenylation element binding protein 1)	-1.77	active
RGS19 (regulator of G protein signaling 19)	-0.54	inactive
DNAI7 (dynein axonemal intermediate chain 7)	-1.33	active
CTPS1 (CTP synthase 1)	-0.642	inactive
SP100 (SP100 nuclear body protein)	0.318	inactive
MESD (mesoderm development LRP chaperone)	0.624	inactive
CDKAL1 (CDKAL1 threonylcarbamoyladenosine tRNA methylthiotransferase)	-0.122	inactive
JTB (jumping translocation breakpoint)	1.21	active
PDS5A (PDS5 cohesin associated factor A)	-1.31	active
TIGD1 (tigger transposable element derived 1)	-2.71	active
ZCCHC14 (zinc finger CCHC-type containing 14)	-1.92	active
TRMT61B (tRNA methyltransferase 61B)	-1.48	active
PLSCR4 (phospholipid scramblase 4)	1.39	active
APOBEC3C (apolipoprotein B mRNA editing enzyme catalytic subunit 3C)	-1.49	active
TOR4A (torsin family 4 member A)	-1.92	active
PLAG1 (PLAG1 zinc finger)	-1.73	active
SMIM8 (small integral membrane protein 8)	-0.52	inactive
SYT13 (synaptotagmin 13)	-1.09	active
IFI27L2 (interferon alpha inducible protein 27 like 2)	-2.26	active
PCOLCE2 (procollagen C-endopeptidase enhancer 2)	-2.31	active
